The Kd is the equilibrium constant for the complex coming apart. Read a low Kd as higher affinity.

For 1 molecule, Kd results are on record in publication PMC10303457 (2023).

Experiment [1] deals with Human IMPα5 aa 74–538 (lacking the IMPβ binding domain) (human, UniProt P52294 74-538). Briefly: FP.
The target in experiment [2] is Human IMPα1 aa 71–529 (lacking the IMPβ binding domain) (human, UniProt P52292 71-529). Put plainly: FP.

B1: FITC-labelled HeV M NLS2 peptide (peptide)
peptide: VRRAGKYYSVEYCKRKID
As for B1, the Kd was determined as 5.28 µM in experiment [1] and 8.71 µM in experiment [2].
